Compound potency records, mixed from different reports. Data source: NIAID ChemDB in PubChem.

All rows: tests in culture

A number after MIC or MFC names an inhibition level or a share of isolates. An empty or dashed field is not shown. Inhibition is in % at the dose shown (toxicity tests: loss of growth or viability). Two numbers with a dash give a range or band. Zones are inhibition diameters on agar. Rows are shuffled and stem from different studies.

| SMILES | endpoint | agent | strain | read by | dose | result |
|---|---|---|---|---|---|---|
| CCC(C)n1ncn(-c2ccc(N3CCN(c4ccc(OC[C@H]5CO[C@](Cn6cncn6)(c6ccc(Cl)cc6Cl)O5)cc4)CC3)cc2)c1=O | MIC50 | Aspergillus fumigatus | 60 isolates | - | - | 0.25 µg/mL |
| Cc1ccc(N2NOC(=O)C2S(=O)(=O)Nc2ccc(-n3c(-c4c(Cl)cccc4[N+](=O)[O-])nc4ccccc4c3=O)cc2)cc1 | zone | Aspergillus clavatus | MTCC323 | agar diffusion | 250 µg/mL | 23 mm |
| CN(C/C=C/C#CC(C)(C)C)Cc1cccc2ccccc12 | zone | Aspergillus fumigatus | - | agar diffusion / agar | 5 mg/mL | 10–15 mm |
| COc1ccc(Cn2nc(C3CC3)cc2NC(=O)c2cccc(Br)c2)cc1 | MIC | Aspergillus ochraceus | - | - | - | 44 µg/mL |
| CC(=O)OC[C@H]1O[C@@H](n2nc(-c3cccnc3)n(N)c2=S)[C@H](OC(C)=O)[C@@H](OC(C)=O)[C@@H]1OC(C)=O | zone | Aspergillus fumigatus | - | agar diffusion / agar | 5 mg/mL | 1–5 mm |
| CCCCC1OC(=O)C2CCCCC12 | MIC | Aspergillus glaucus | AM211 | - | - | 246.3 µg/mL |
| C[C@@H]1[C@H](O)[C@@H](C)/C=C/C=C/CC/C=C/C=C/C=C/C=C/C(O[C@H]2O[C@H](C)[C@@H](O)[C@H](N)[C@@H]2O)CC2O[C@](O)(CC(O)C(O)CCC(O)CC(O)CC(O)CC(=O)O[C@H]1C)CC(O)C2C(=O)O | MIC | Aspergillus clavatus | MTCC 1323 | - | - | 100 µg/mL |
| COc1cc(C(C)=O)ccc1O | MIC50 | Aspergillus flavus | - | agar | - | >1000 µg/mL |
| [Al]#[P] | zone | Aspergillus ochraceus | - | agar diffusion | 1 mg/mL | 53.9 mm |
| Cc1ccc(N2NOC(=O)C2S(=O)(=O)Nc2nc3cc(C)ccc3s2)cc1 | MIC | Aspergillus clavatus | MTCC323 | broth dilution | - | 500 µg/mL |
| CC(=O)N(c1ccccc1)c1nc(C)cc(C)n1 | zone | Aspergillus niger | - | - | 100 µg/mL | 2.7 mm |
| CN1CCN(c2nc(Cl)nc(NC3CC3)n2)CC1 | MIC | Aspergillus clavatus | MTCC 1323 | agar | - | 200 µg/mL |
| CC(=O)OC[C@H]1O[C@@H](n2nc(-c3cccnc3)n(/N=C/c3ccc(Cl)cc3)c2=S)[C@H](OC(C)=O)[C@@H](OC(C)=O)[C@@H]1OC(C)=O | zone | Aspergillus fumigatus | - | agar diffusion / agar | 2.5 mg/mL | 1–5 mm |
| Fc1ccccc1N1CCN(c2nc(Cl)nc(NC3CC3)n2)CC1 | MIC | Aspergillus clavatus | MTCC 1323 | agar | - | 50 µg/mL |
| C/C=C/c1ccc(O)c(OC)c1 | MIC100 | Aspergillus flavus | - | agar | - | 301 µg/mL |
| COc1cc(C=O)cc(OC)c1 | MIC | Aspergillus terreus | UAB673 | agar | - | 1000 µM |
| Cc1ccc(N2NOC(=O)C2S(=O)(=O)Nc2ccc(-n3c(-c4ccc(Cl)cc4)nc4ccccc4c3=O)cc2)cc1 | MIC | Aspergillus clavatus | MTCC323 | broth dilution | - | 200 µg/mL |
| Clc1cccc(N2CCN(c3nc(NCCNc4ncnc5c(Br)cc(Br)cc45)nc(NC4CC4)n3)CC2)c1Cl | MIC | Aspergillus clavatus | MTCC 1323 | agar | - | 100 µg/mL |
| CC(C)c1cc2c(c(O)c1O)[C@@]13CCCC(C)(C)C1C[C@@H]2OC3=O | zone | Aspergillus tubingensis | - | agar diffusion | 200 µg/mL | 0 mm |
| COc1cc(C(=O)O)ccc1O | MIC50 | Aspergillus flavus | - | agar | - | >1000 µg/mL |
| COc1ccc(O)c(C=O)c1 | MIC | Aspergillus terreus | UAB673 | agar | - | 500 µM |
| O=C1NC2C=CC1C2 | MIC | Aspergillus glaucus | AM211 | - | - | 262.6 µg/mL |
| Brc1cc(Br)c2ncnc(NCCNc3nc(NC4CC4)nc(N4CCN(Cc5ccccc5)CC4)n3)c2c1 | MIC | Aspergillus clavatus | MTCC 1323 | agar | - | 100 µg/mL |
| Cc1ccc(N2NOC(=O)C2S(=O)(=O)Nc2ccc(-n3c(-c4ccccc4)nc4ccccc4c3=O)cc2)cc1 | zone | Aspergillus clavatus | MTCC323 | agar diffusion | 250 µg/mL | 24 mm |
| COc1cccc(C=O)c1O | MIC | Aspergillus terreus | UAB698 | agar | - | 500 µM |
| COc1c(O)cc2oc(-c3ccc(O)cc3)cc(=O)c2c1O | MIC | Aspergillus tubingensis | - | broth dilution | - | 300 µg/mL |
| C[C@H]1[C@H](O)[C@@H](C)/C=C/C=C/C=C/C=C/C=C/C=C/C=C/[C@H](O[C@@H]2O[C@H](C)[C@@H](O)[C@H](N)[C@@H]2O)C[C@@H]2O[C@](O)(C[C@@H](O)C[C@@H](O)CC[C@H](O)[C@@H](O)C[C@@H](O)CC(=O)O[C@H]1C)C[C@H](O)[C@H]2C(=O)O | inhibition | Aspergillus fumigatus | W73355 | agar | 1 µg/mL | 20% |
| COc1ccc(Cn2nc(C3CC3)cc2NC(=O)c2cc([N+](=O)[O-])cc([N+](=O)[O-])c2)cc1 | MIC | Aspergillus ochraceus | - | - | - | 54 µg/mL |
| Cc1cc(CBr)nc(Nc2ccccc2)n1 | zone | Aspergillus niger | - | - | 50 µg/mL | 1.9 mm |
| O=C1OCC2CCCCC12 | MIC | Aspergillus glaucus | AM211 | - | - | 142.9 µg/mL |
| CN(C/C=C/C#CC(C)(C)C)Cc1cccc2ccccc12 | MFC | Aspergillus fumigatus | NFI 0159 | - | - | 4 µg/mL |
| O=C1N[C@@H]2C=C[C@H]1C2 | MIC | Aspergillus glaucus | AM211 | - | - | 245 µg/mL |
| Cc1ccc(C(C)C)cc1O | MIC100 | Aspergillus flavus | - | agar | - | 200 µg/mL |
| CCCC(=O)N1C(=O)C2C=CC1C2 | MIC | Aspergillus glaucus | AM211 | - | - | 203.8 µg/mL |
| COc1cc(C(=O)O)cc(OC)c1O | MIC50 | Aspergillus flavus | - | agar | - | >1000 µg/mL |
| COc1ccc(Cn2nc(C3CC3)cc2NC(=O)c2ccccc2)cc1 | MIC | Aspergillus ochraceus | - | - | - | 32 µg/mL |
| CC1=CC(=O)c2c(O)cccc2C1=O | MIC100 | Aspergillus oryzae | CCAM 080006 | broth dilution | - | 0.625 µg/mL |
| C[C@H]1[C@H](O)[C@@H](C)/C=C/C=C/C=C/C=C/C=C/C=C/C=C/[C@H](O[C@@H]2O[C@H](C)[C@@H](O)[C@H](N)[C@@H]2O)C[C@@H]2O[C@](O)(C[C@@H](O)C[C@@H](O)CC[C@H](O)[C@@H](O)C[C@@H](O)CC(=O)O[C@H]1C)C[C@H](O)[C@H]2C(=O)O | MFC | Aspergillus fumigatus | NFI 0159 | - | - | 2 µg/mL |
| Clc1nc(NC2CC2)nc(N2CCC(Cc3ccccc3)CC2)n1 | MIC | Aspergillus clavatus | MTCC 1323 | agar | - | 200 µg/mL |
| Cc1nc(Nc2ccccc2)nc2c1C(=N)C(C#N)CN(Cc1ccccc1)C2 | zone | Aspergillus niger | - | - | 1000 µg/mL | 2.1 mm |
| CC(=O)OC[C@H]1O[C@@H](n2[nH]c(-c3ccccc3)[n+](/N=C/c3ccc(Cl)cc3)c2=S)[C@H](OC(C)=O)[C@@H](OC(C)=O)[C@@H]1OC(C)=O | zone | Aspergillus fumigatus | - | agar diffusion / agar | 1 mg/mL | 1–5 mm |
| Clc1nc(NC2CC2)nc(N2CCN(c3cccc(Cl)c3Cl)CC2)n1 | MIC | Aspergillus clavatus | MTCC 1323 | agar | - | 100 µg/mL |

For reference, 4 entries again:

SMILES,endpoint,agent,strain,read by,dose,result
C/C=C/c1ccc(O)c(OC)c1,MIC100,Aspergillus flavus,-,agar,-,301 µg/mL
Brc1cc(Br)c2ncnc(NCCNc3nc(NC4CC4)nc(N4CCN(Cc5ccccc5)CC4)n3)c2c1,MIC,Aspergillus clavatus,MTCC 1323,agar,-,100 µg/mL
Cc1ccc(N2NOC(=O)C2S(=O)(=O)Nc2nc3cc(C)ccc3s2)cc1,MIC,Aspergillus clavatus,MTCC323,broth dilution,-,500 µg/mL
CC(=O)OC[C@H]1O[C@@H](n2nc(-c3cccnc3)n(N)c2=S)[C@H](OC(C)=O)[C@@H](OC(C)=O)[C@@H]1OC(C)=O,zone,Aspergillus fumigatus,-,agar diffusion / agar,5 mg/mL,1–5 mm